PubChem BioAssay AID1259414 – Drosophila RNAi Screening Center, 2018

Test: 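Genome-wide screen for host control of endosymbiont load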 (primary screen)
Cell system: Drosophila JW18 cells infected with Wolbachia
Knock-down reagent: long dsRNA against Drosophila genes, 0.25 µg dsRNA per well of a 384-well plate
Timing: 5 days
Treatment: cells persistently infected with Wolbachia before knock-down; no added drug
Read-out: 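Imaged fluorescence in situ signal for Wolbachia 23S rRNA per DAPI-counted host cell, given as a robust z-score within each plate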
Scale: Wolbachia per cell robust z: higher = more Wolbachia per host cell than the plate typical
Rule for the call: 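Active if absolute robust z reaches 1.5 in two or more of three replicates, leaving out multi- or no-target dsRNAs, genes unexpressed in JW18 and A1 wells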
The deposit covers about 24,000 reagents; shown is an unselected part of those that have a named target and a result. Over the whole deposit, about 1,210 (5%) got an active call. 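Inactive calls also include excluded dsRNAs with several or no targets, genes unexpressed in JW18, and well A1, regardless of score.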 A plus sign joins genes that one reagent is predicted to hit.

ArfGAP1 (ADP-ribosylation factor GTPase activating protein 1) [DRSC11173]: Wolbachia per cell robust z, rep 1 = 0.33; Wolbachia per cell robust z, rep 2 = -0.558; Wolbachia per cell robust z, rep 3 = -0.181; call = inactive
Nckx30C [DRSC02686]: Wolbachia per cell robust z, rep 1 = -0.83; Wolbachia per cell robust z, rep 2 = 0.0422; Wolbachia per cell robust z, rep 3 = -1.01; call = inactive
Nckx30C [DRSC02687]: Wolbachia per cell robust z, rep 1 = 0.156; Wolbachia per cell robust z, rep 2 = -0.794; Wolbachia per cell robust z, rep 3 = 0.26; call = inactive
Nckx30C [DRSC02688]: Wolbachia per cell robust z, rep 1 = 0.0691; Wolbachia per cell robust z, rep 2 = 0.616; Wolbachia per cell robust z, rep 3 = 0.269; call = inactive
Nckx30C [DRSC02689]: Wolbachia per cell robust z, rep 1 = -0.0737; Wolbachia per cell robust z, rep 2 = 0.452; Wolbachia per cell robust z, rep 3 = -0.328; call = inactive
Sems (Seminase) [DRSC11626]: Wolbachia per cell robust z, rep 1 = -1.2; Wolbachia per cell robust z, rep 2 = 0.505; Wolbachia per cell robust z, rep 3 = 0.0373; call = inactive
Sems (Seminase) [DRSC25887]: Wolbachia per cell robust z, rep 1 = -1.7; Wolbachia per cell robust z, rep 2 = -0.0946; Wolbachia per cell robust z, rep 3 = -1.76; call = inactive
Syn (Synapsin) [DRSC16876]: Wolbachia per cell robust z, rep 1 = -1.22; Wolbachia per cell robust z, rep 2 = -2.59; Wolbachia per cell robust z, rep 3 = -4.05; call = inactive
Syn (Synapsin) [DRSC26448]: Wolbachia per cell robust z, rep 1 = 1.02; Wolbachia per cell robust z, rep 2 = 0.66; Wolbachia per cell robust z, rep 3 = 0.216; call = inactive
CG4594 [DRSC02762]: Wolbachia per cell robust z, rep 1 = -0.673; Wolbachia per cell robust z, rep 2 = 0.425; Wolbachia per cell robust z, rep 3 = 0.856; call = inactive
Myo95E (Myosin 95E) [DRSC15821]: Wolbachia per cell robust z, rep 1 = -0.409; Wolbachia per cell robust z, rep 2 = -0.0171; Wolbachia per cell robust z, rep 3 = 1.06; call = inactive
Trpm (Transient receptor potential cation channel, subfamily M) [DRSC06629]: Wolbachia per cell robust z, rep 1 = -0.522; Wolbachia per cell robust z, rep 2 = 1.13; Wolbachia per cell robust z, rep 3 = 0.017; call = inactive
Trpm (Transient receptor potential cation channel, subfamily M) [DRSC21566]: Wolbachia per cell robust z, rep 1 = -0.539; Wolbachia per cell robust z, rep 2 = 0.0227; Wolbachia per cell robust z, rep 3 = 0.334; call = inactive
Trpm (Transient receptor potential cation channel, subfamily M) [DRSC27597]: Wolbachia per cell robust z, rep 1 = -0.0818; Wolbachia per cell robust z, rep 2 = -1.35; Wolbachia per cell robust z, rep 3 = 0.155; call = inactive
Trpm (Transient receptor potential cation channel, subfamily M) [DRSC29042]: Wolbachia per cell robust z, rep 1 = 0.715; Wolbachia per cell robust z, rep 2 = -0.323; Wolbachia per cell robust z, rep 3 = -0.664; call = inactive
Pkd2 (Polycystic kidney disease 2) [DRSC02962]: Wolbachia per cell robust z, rep 1 = -0.497; Wolbachia per cell robust z, rep 2 = 0.0294; Wolbachia per cell robust z, rep 3 = 0.575; call = inactive
Pkd2 (Polycystic kidney disease 2) [DRSC27522]: Wolbachia per cell robust z, rep 1 = -1.54; Wolbachia per cell robust z, rep 2 = -0.0737; Wolbachia per cell robust z, rep 3 = -0.671; call = inactive
CG12581 [DRSC12206]: Wolbachia per cell robust z, rep 1 = -2.09; Wolbachia per cell robust z, rep 2 = 0.195; Wolbachia per cell robust z, rep 3 = 0.667; call = inactive
CG12581 [DRSC12207]: Wolbachia per cell robust z, rep 1 = 0.0976; Wolbachia per cell robust z, rep 2 = -1.23; Wolbachia per cell robust z, rep 3 = -0.561; call = inactive
Amy-p + Amy-d [DRSC21242]: Wolbachia per cell robust z, rep 1 = -1.77; Wolbachia per cell robust z, rep 2 = -0.0671; Wolbachia per cell robust z, rep 3 = -0.261; call = inactive
CG6044 [DRSC04522]: Wolbachia per cell robust z, rep 1 = -2.3; Wolbachia per cell robust z, rep 2 = -0.0296; Wolbachia per cell robust z, rep 3 = 0.516; call = inactive
CG17760 [DRSC06694]: Wolbachia per cell robust z, rep 1 = 0.981; Wolbachia per cell robust z, rep 2 = 0.43; Wolbachia per cell robust z, rep 3 = 0.965; call = inactive
CG17760 [DRSC25493]: Wolbachia per cell robust z, rep 1 = -0.215; Wolbachia per cell robust z, rep 2 = -0.382; Wolbachia per cell robust z, rep 3 = 0.0917; call = inactive
CG10710 [DRSC09784]: Wolbachia per cell robust z, rep 1 = 0.296; Wolbachia per cell robust z, rep 2 = -0.786; Wolbachia per cell robust z, rep 3 = -0.159; call = inactive

Part of the list above, reformatted:
predicted target | amplicon | Wolbachia per cell robust z, rep 1 | Wolbachia per cell robust z, rep 2 | Wolbachia per cell robust z, rep 3 | call
Myo95E (Myosin 95E) | DRSC15821 | -0.409 | -0.0171 | 1.06 | inactive
Trpm (Transient receptor potential cation channel, subfamily M) | DRSC06629 | -0.522 | 1.13 | 0.017 | inactive
